Results reported in ChEMBL document CHEMBL3044862, “Quantitative Structure-Activity Relationships of Fluazinam and Related Fungicidal N-Phenylpyridinamines” (1995).

Tested on: Botrytis cinerea
Assay: Fungicidal activity against Botryotinia fuckeliana inoculated on compound pre-treated one-leaf stage cucumber seedlings assessed as prevention of leaf lesions measured 3 days after inoculation

[N-]=[N+]=Nc1c(C(F)(F)F)cc([N+](=O)[O-])c(Nc2ncc(C(F)(F)F)cc2Cl)c1[N+](=O)[O-]
MIC: > 500 µg/mL
